{"sequences": {"note": "By UniProt entry, the sequences of proteins in these tests, tags left out.", "UniProt P31266, whole entry I187A/V189A": "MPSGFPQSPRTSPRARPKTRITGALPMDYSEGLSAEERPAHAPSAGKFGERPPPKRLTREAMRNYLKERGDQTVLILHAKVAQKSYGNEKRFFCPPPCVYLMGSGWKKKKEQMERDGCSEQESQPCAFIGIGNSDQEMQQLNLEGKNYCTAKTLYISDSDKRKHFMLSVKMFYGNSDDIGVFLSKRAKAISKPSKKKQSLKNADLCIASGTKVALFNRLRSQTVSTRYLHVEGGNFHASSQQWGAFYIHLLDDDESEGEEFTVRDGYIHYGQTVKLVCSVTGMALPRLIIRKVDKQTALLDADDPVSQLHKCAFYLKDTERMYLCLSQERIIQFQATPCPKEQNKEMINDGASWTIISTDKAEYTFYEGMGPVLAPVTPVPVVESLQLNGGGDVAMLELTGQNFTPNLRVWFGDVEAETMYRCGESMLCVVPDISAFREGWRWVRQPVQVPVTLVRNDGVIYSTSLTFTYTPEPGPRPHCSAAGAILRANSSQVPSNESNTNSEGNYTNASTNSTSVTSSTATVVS"}, "source": "paper PMC8325870", "target": "RBPJ IV/AA I187A,V189A (UniProt P31266)", "experiment": "EMSA", "conditions": "slightly reduced vs wt; 10 mM Tris-HCl pH 7.5, 100 mM NaCl, 0.1 mM EDTA, 0.5 mM DTT, 4% glycerol, 10 ng poly(dI-dC), ~0.5 ng 32P-oligo, 2 or 4 ul reticulocyte lysate; temperature not stated; protein translated in vitro; protein details: Flag; label: 32P", "note": "The exact form of at least one protein or probe is not confirmed. A weaker result is weaker than the reference pair of the same experiment."}
{"sequence": "CCTGGAACTATTTTCCCACGGTGCCCTTCCGCCCATTTTCCCACGAGTCG / CTCGCGACTCGTGGGAAAATGGGCGGAAGGGCACCGTGGGAAAATAGTTC [FO-233F/FO-233R (EBV TP-1 promoter, two RBPJ sites)]", "values": [{"measurement": "binding result", "result": "binds more weakly"}]}
